Laboratory results: PubChem BioAssay AID504761 (Drosophila RNAi Screening Center, 2011)
Assay: 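Insect host genes that dengue virus relies on to spread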 (primary screen). System: D.Mel-2 cells from Drosophila. Knock-down reagent: long dsRNA against Drosophila genes. Treatment: infection with dengue virus type 2; dose and infection time not stated. Measurement: 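Per well on two replicate plates, imaging gave the percent of cells positive for viral envelope protein, ranked by infection, and a nuclear count of cells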. Reading the numbers: infection score: higher = more virus-infected cells; cell count: higher = more cells in the well. Rule for the call: 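Very low infection ranking in both replicate wells (chance probability at most 0.065), then a retest showing infection dropped 1.5-fold or more at p below 0.05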. Calls: active = confirmed: knock-down lowers infection; inactive = not picked or not confirmed.
The screen tested about 22,000 reagents; below is an unselected part of those that have a named target and a result. Of all reagents, 116 (0.52%) were called active. 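Calls depend on retest data that are not deposited; infection was ranked per plate without normalising between plates; the unit of the infection score is not given.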 Raw values are not corrected between plates. The numbers tell different reagents against one gene apart. Names joined by + are all predicted targets of the reagent. Reagent sequences are not shown. The record does not give: the amount of reagent, the time to read-out.

target	reagent no.	infection score, replicate 1	infection score, replicate 2	cell count, replicate 1	cell count, replicate 2	outcome
dpr16	1	1.86	1.52	6403	6832	inactive
dpr16	2	1.8	1.86	6503	6943	inactive
CG13367	1	12.7	4.07	6190	6535	inactive
CG13367	2	10.3	1.91	6353	6350	inactive
CG1635	1	2.86	3.45	5986	6954	inactive
CG1635	2	6.29	7.66	6388	5198	inactive
Elo68alpha	1	5.09	5.52	6695	6647	inactive
Gr77a	1	2.6	0.77	6189	6457	inactive
Gr77a	2	7.44	2.99	6668	3517	inactive
Esyt2	1	2.2	1.45	6788	6465	inactive
CG33140	1	2.93	13.9	6582	5061	inactive
CG33140	2	1.93	1.92	6637	6287	inactive
ND-19	1	1.2	2.01	6328	6700	inactive
ND-19	2	12.3	12.1	6437	6383	inactive
CG10931	1	1.46	6.88	6901	6687	inactive
CG4783	1	3.69	0.58	6685	6525	inactive
CG33235	1	4.28	14.3	2078	5510	inactive
Karybeta3	1	19.6	26.3	1909	4262	inactive
CG9590	1	9.65	8.28	6495	6416	inactive
ths	1	1.57	5.42	6890	6699	inactive
ths	2	2.29	3.93	6716	6662	inactive
CG17717	1	1.55	1.65	6579	6612	inactive
CG30427	1	6.03	4.82	6183	5850	inactive
CG30427	2	24.9	24.5	6657	4136	inactive
CG30427	3	2.77	10.3	6638	6080	inactive
CG30427	4	11	2.89	4521	6922	inactive
IntS11	1	4.95	2.87	5539	6090	inactive
IntS11	2	2.78	7.82	5973	5781	inactive
CG42322	1	3.87	6.13	6673	6448	inactive
CG42322	2	7.87	5.98	6089	6619	inactive
CG42322	3	2.94	2.7	6641	6661	inactive
Ubc6	1	29.5	20.8	5183	5612	inactive
Ubc6	2		3.93	385	737	inactive
squ	1	6.23	3.21	5766	5885	inactive
Uev1A	1	11.1	11.2	5351	5837	inactive
CG17202	1	6.13	16.1	6164	6112	inactive
CG5541	1	5.7	2.05	6455	6597	inactive
LTV1	1	18.6	4.84	3782	5729	inactive
CG6790	1	7.88	5.75	6221	6747	inactive
CG15343	1	10	6.95	6187	6430	inactive
CG30183	1	3.99	7.66	6641	6975	inactive
CG30183	2	7.47	9.97	6586	7159	inactive
Hou	1	1.85	2.76	6657	7053	inactive
Hou	2	6.4	14.2	5613	6452	inactive
Hou	3	15.2	9.47	5899	6419	inactive
CG3894	1	1.43	2.16	6277	6064	inactive
CG3894	2	0.51	0.12	6297	5923	inactive
CG3894	3	1.39	11.9	6348	1823	inactive
scpr-A + scpr-C + scpr-B	1	1.32	17.1	6680	5542	inactive
beta4GalNAcTB	1	5.84	5.67	6505	6788	inactive
PolD3	1	9.05	28.5	6356	5174	inactive
PolD3	2	0.59	8.89	512	1890	inactive
croc	1	13.8	6.26	6199	6280	inactive
croc	2		7.11	295	6121	inactive
CG12730	1	13.1	12.7	4575	4968	inactive
CG9997	1	1.92	11.5	6566	5501	inactive
CG9997	2		10.6	366	5712	inactive
AspRS-m	1	5.05	2.91	6117	6669	inactive
